Compound potency records, mixed from different reports. Data source: NIAID ChemDB in PubChem.

Shared fields: growth or infection tests; species: Mycobacterium tuberculosis

Lines come from different laboratories, so protocols vary. ECn: concentration that inhibits the pathogen or its effect by n%. Blank or dashed fields: not listed here. Percent inhibition refers to the dose given; in toxicity tests it is the harm to the cells. MIC bound comes from a single tested concentration. A number after MIC or MFC names an inhibition level or a share of isolates.

SMILES | strain | tested at | method | read-out | value
CCCCn1c(-c2ccc(Cl)cc2Cl)cs/c1=N\NC(=O)COc1cnccn1 | H37Rv | - | - | MIC | 13 µg/mL
C[C@@H]1CN(c2c(F)c(N)c3c(=O)c(C(=O)O)cn(C4CC4)c3c2F)C[C@H](C)N1 | Isolate 12 | - | - | MIC | 0.13 µg/mL
CC1COc2c(N3CCN(C)CC3)c(F)cc3c(=O)c(C(=O)O)cn1c23 | SMI 20 | - | agar | MIC | 0.5 µg/mL
CCCCCCCCCCCCCCCCNc1ccc(CNCCNC2CCCCCCC2)cc1 | - | - | - | MIC | 50 µM
CCOc1ccc(-n2c(-c3ccc(Br)cc3)cs/c2=N\NC(=O)COc2cnccn2)cc1 | H37Rv | - | - | MIC | 8.9 µg/mL
COc1ccc2[nH]cc(CCNCCNCc3cccc(C)c3)c2c1 | - | - | - | MIC | 50 µM
COc1ccc(CCC2CCc3ccccc3N2C)cc1OC | MT1 | - | - | MIC | 50 µg/mL
CCCCCCCCCCCNCCNC/C=C(\C)CCC=C(C)C | - | - | - | MIC | 25 µM
O=C(N/N=C/c1ccccc1F)c1ccncc1 | Thiacetazone-resistant | - | - | MIC | >1.6 µg/mL
Nc1ccc(CS(=O)(=O)[O-])cc1.[Na+] | H37Rv | - | - | MIC | >100 µg/mL
CCCCC(CC)CN1CN(CC(CC)CCCC)CC(C)(NCCNCc2ccco2)C1 | - | - | - | MIC | 12.5 µM
CC1SC(=S)NC1=O | H37Rv | - | - | MIC | >100 µg/mL
O=C1CC(c2ccccc2)Oc2cc(I)ccc21 | H37Rv | - | - | EC50 | >12.5 µg/mL
Cc1ccc(Nc2cc(N)nc(N)n2)cc1 | H37Rv | - | BACTEC | MIC bound | >12.5 µg/mL
CO[C@H]1/C=C/O[C@@]2(C)Oc3c(C)c(O)c4c(=O)c(c5oc6cc(N7CCN(CC(C)C)CC7)cc(=O)c6nc5c4c3=C2O)NC(=O)/C(C)=C\C=C\[C@H](C)[C@H](O)[C@@H](C)[C@@H](O)[C@@H](C)[C@H](OC(C)=O)[C@@H]1C | TN808 | - | - | MIC | 16 µg/mL
Nc1cccc2c1C(=O)c1ccccc1C2=O | H37Rv | - | - | MIC | >100 µg/mL
CO[C@H]1/C=C/O[C@@]2(C)Oc3c(C)c(O)c4c(O)c(c5c(c4c3C2=O)NC2(CCN(CC(C)C)CC2)N=5)=NC(=O)/C(C)=C\C=C\[C@H](C)[C@H](O)[C@@H](C)[C@@H](O)[C@@H](C)[C@H](OC(C)=O)[C@@H]1C | 13 (rifampicin-susceptible) | - | - | MIC | ≤0.062 µg/mL
Cc1ccnc(NS(=O)(=O)c2ccc(N=Nc3ccc(N)nc3N)cc2)n1 | H37Rv | - | BACTEC | MIC | ≥12.5 µg/mL
CC(=O)Nc1ccc(S(=O)(=O)C(F)(F)F)cc1 | H37Rv | - | - | MIC | >100 µg/mL
COc1ccc(OC)c(CCNCCNC/C=C(\C)CCC=C(C)C)c1 | - | - | - | MIC | 50 µM
CCCCn1c(-c2ccccc2)cs/c1=N\NC(=O)COc1cnccn1 | H37Rv | - | - | MIC | 21 µg/mL
CC(CNC1CCCCCCC1)NC[C@@H]1CC[C@H]2C[C@@H]1C2(C)C | - | - | - | MIC | 12.5 µM
COc1ccc(CCNCCNC[C@]2(C)CCC[C@]3(C)c4ccc(C(C)C)cc4CC[C@@H]23)cc1 | - | - | - | MIC | 25 µM
CCOCCOc1ccc(C(C)(C)C)cc1 | H37Rv | - | - | MIC | >100 µg/mL
Fc1cccc(CNCCNCCCCc2ccccc2)c1 | - | - | - | MIC | 25 µM
COc1ccc(-n2c(=O)oc3ccccc3c2=O)cc1 | CNCTC MY331/88 | - | - | MIC | 125 µM
C[C@H]1C[C@H](N)CN1c1cc2c(cc1F)c(=O)c(C(=O)O)cn2-c1ccc(F)cc1F | ATCC 35828 | - | - | MBC | >8 µg/mL
CCCCCCCCCCCCCCCCOS(=O)(=O)c1ccc(C)cc1 | H37Rv | - | - | MIC | >100 µg/mL
CC(NNC(=O)c1ccncc1)c1cccc(C(F)(F)F)c1 | Erdman | - | - | MIC | 3.13 µg/mL
Cc1n[nH]c(=O)c2ccccc12 | H37Rv | 0.5 µM | BACTEC | inhibition | 0%
C[C@@H]1[C@@H](NCCNCC(c2ccccc2)c2ccccc2)C[C@H]2C[C@@H]1C2(C)C | - | - | - | MIC | 3.13 µM
C/C(=N\NC(=O)c1ccncc1)c1ccccc1F | Erdman | - | - | MIC | 0.39 µg/mL
CN[C@@H]1[C@H](O[C@H]2[C@H](O[C@H]3[C@H](O)[C@@H](O)[C@H](N=C(N)N)[C@@H](O)[C@@H]3N=C(N)N)O[C@@H](C)[C@]2(O)C=O)O[C@@H](CO)[C@H](O)[C@H]1O | TN4728 (BN) | - | - | MIC | >2 µg/mL
Cc1ccc(C)n1-c1cc(Cl)cc2cccnc12 | H37Rv | - | - | MIC | >100 µg/mL
CC(C)Cn1c(-c2ccc(Cl)cc2Cl)cs/c1=N\NC(=O)COc1cnccn1 | H37Rv | - | - | MIC | 6.6 µg/mL
CO[C@H]1/C=C/O[C@@]2(C)Oc3c(C)c(O)c4c(O)c(c(/C=N/N5CCN(C)CC5)c(O)c4c3C2=O)NC(=O)/C(C)=C\C=C\[C@H](C)[C@H](O)[C@@H](C)[C@@H](O)[C@@H](C)[C@H](OC(C)=O)[C@@H]1C | Isolate 2 | - | - | MIC | >32 µg/mL
O=C(c1ccccc1)c1cc(Cl)ccc1Cl | H37Rv | - | - | MIC | >100 µg/mL
Clc1ccccc1CCNCCNCCNc1ccccc1 | - | - | - | MIC | 50 µM
COc1ccc(C2Oc3ccccc3C(=O)C2O)cc1 | - | 12.5 µg/mL | - | inhibition | 48%
CC(=O)Nc1ccc(Cc2ccc(NC(C)=O)cc2)cc1 | H37Rv | - | - | MIC | >100 µg/mL
NCC[C@H](O)C(=O)N[C@@H]1C[C@H](N)[C@@H](O[C@H]2O[C@H](CN)[C@@H](O)[C@H](O)[C@H]2O)[C@H](O)[C@H]1O[C@H]1O[C@H](CO)[C@@H](O)[C@H](N)[C@H]1O | 7S | - | - | MIC | 2.5 µg/mL
CCCCCc1cc(OC)c2ccccc2n1 | MT1 | - | - | MIC | 6.25 µg/mL
CC(=O)NCc1c(C)cc(C)cc1C | H37Rv | - | - | MIC | >100 µg/mL
COc1ccc2oc(=O)n(-c3ccc(C#N)cc3)c(=O)c2c1 | CNCTC MY331/88 | - | - | MIC | 32 µM
C[C@H]1COc2c(N3CCN(C)CC3)c(F)cc3c(=O)c(C(=O)O)cn1c23 | H37Rv | - | resazurin | MIC | 0.25 µg/mL
NNC(=O)c1ccncc1 | PR819 | - | - | MIC | 20 µg/mL
CC1COc2c(N3CCN(C)CC3)c(F)cc3c(=O)c(C(=O)O)cn1c23 | Drug-resistant | - | - | MIC90 | 1 µg/mL
C1=C(CCNCCNCC(c2ccccc2)c2ccccc2)CCCC1 | - | - | - | MIC | 25 µM
CC(C)N=c1cc2n(-c3ccc(Cl)cc3)c3ccccc3nc-2cc1Nc1ccc(Cl)cc1 | MDR14 | - | broth dilution / resazurin | MIC | 0.5 µg/mL
CC(CNCCc1ccccc1F)NC1CCCCCCC1 | - | - | - | MIC | 50 µM
O=C(/C=C/c1ccccc1)c1cccc(I)c1O | - | - | - | EC50 | >12.5 µg/mL
O=Cc1ccc(O)cc1O | H37Rv | - | - | MIC | >100 µg/mL
COc1ccc2c(=O)n(-c3ccc(Cl)c(Cl)c3)c(=O)oc2c1 | CNCTC MY331/88 | - | - | MIC | 8 µM
C1=C(CCNCCNCCC2=CCCCC2)CCCC1 | - | - | - | MIC | 12.5 µM
c1ccc(N=C(Nc2ccccc2)Nc2ccccc2)cc1 | H37Rv | - | - | MIC | 50 µg/mL
O=C(NNCc1cccc(C(F)(F)F)c1)c1ccncc1 | H37Rv (isoniazid-resistant) | - | - | MIC | >31.25 µg/mL
CC(C)c1ccc2c(c1)CC[C@H]1[C@](C)(CNCCNCCc3ccc(O)cc3)CCC[C@]21C | - | - | - | MIC | 25 µM
NC1CCN(c2nc3c(cc2F)c(=O)c(C(=O)O)cn3-c2ccc(F)cc2F)C1 | ATCC 35827 | - | - | MIC | >8 µg/mL
NC(N)=NS(=O)(=O)c1ccccc1 | H37Rv | - | - | MIC | 50 µg/mL
O=C(N/N=C/c1cccc(F)c1)c1ccncc1 | Erdman | - | - | MIC | 0.4 µg/mL
Cc1ccc(-n2c(=O)oc3cc(C)ccc3c2=O)cc1 | CNCTC MY331/88 | - | - | MIC | 125 µM
CC[C@H]1OC(=O)[C@H](C)[C@@H](O[C@H]2C[C@@](C)(OC)[C@@H](O)[C@H](C)O2)[C@H](C)[C@@H](O[C@@H]2O[C@H](C)C[C@H](N(C)C)[C@H]2O)[C@](C)(O)C[C@@H](C)CN(C)[C@H](C)[C@@H](O)[C@]1(C)O | DRUG-SUS | - | - | MIC90 | >8 µg/mL
O=C(O)C(c1ccccc1)(c1ccccc1)c1ccccc1 | H37Rv | - | - | MIC | 100 µg/mL
CC(NNC(=O)c1ccncc1)c1ccc(Cl)c(Cl)c1 | Rifampicin-resistant | - | - | MBC | 12.5 µg/mL
CCOC(=O)c1c(C)nc(C)nc1N | H37Rv | - | - | MIC | >100 µg/mL
NC[C@H]1O[C@H](O[C@H]2[C@H](O)[C@@H](O[C@H]3O[C@H](CO)[C@@H](O)[C@H](N)[C@H]3O)[C@H](N)C[C@@H]2N)[C@H](O)[C@@H](O)[C@@H]1O | Isolate 16 | - | - | MIC | 1 µg/mL
Cc1cc(S(=O)(=O)O)ccc1Cl | H37Rv | - | - | MIC | >100 µg/mL
CC(=O)NC[C@H]1CN(c2ccc(N3CCOCC3)c(F)c2)C(=O)O1 | 2R | - | - | MIC | 0.5 µg/mL
CCN(CC)c1ccc([N+](=O)[O-])c(N)c1 | H37Rv | - | - | MIC | >100 µg/mL
Cc1cccc(CNCCNCCCCc2ccccc2)c1 | - | - | - | MIC | 12.5 µM
Nc1n[nH]c(=S)s1 | H37Rv | - | - | MIC | >100 µg/mL
NC1CCN(c2c(F)cc3c(=O)c(C(=O)O)cn(C4CC4)c3c2Cl)C1 | Drug-resistant | - | - | MBC90 | 1 µg/mL
Oc1ccc(C=Nc2ccc(N=Nc3ccccc3)cc2)c(O)c1 | H37Rv | - | - | MIC | >100 µg/mL
CC1CCC(NCCNCCNc2ccccc2)CC1 | - | - | - | MIC | 50 µM
COc1ccc(C2Oc3cc(F)ccc3C(=O)C2OC(C)=O)cc1 | H37Rv | - | - | EC50 | 12.5 µg/mL
NC(=O)NC(O)C(Cl)(Cl)Cl | H37Rv | - | - | MIC | >100 µg/mL